Data source: PubChem BioAssay AID1259414 (Drosophila RNAi Screening Center, 2018)

Test: 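Host factors increasing or decreasing Wolbachia levels in cultured fly cells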 (primary screen)
Cell system: Drosophila JW18 cells infected with Wolbachia
Reagent: long dsRNA against Drosophila genes, 0.25 µg dsRNA per well of a 384-well plate
Timing: 5 days
Conditions: cells persistently infected with Wolbachia before knock-down; no added drug
Detection: 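Automated imaging of bacterial rRNA staining divided by host cell count, reported as plate-normalised robust z-score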
Scale: Wolbachia per cell robust z: higher = more Wolbachia per host cell than the plate typical
Rule for the call: 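Hit when robust z is 1.5 or more, or -1.5 or less, in at least two of three replicates; excludes dsRNAs with several or no targets, genes not expressed in JW18 and well A1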
In all, the deposit lists about 24,000 reagents; below is an unselected part of those that have a named target and a result. In the full data, about 1,210 (5%) are marked active. 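Inactive calls also include excluded dsRNAs with several or no targets, genes unexpressed in JW18, and well A1, regardless of score.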 A plus sign joins genes that one reagent is predicted to hit.

{"gene": "Klp68D", "dsRNA": "DRSC11206", "Wolbachia per cell robust z, rep 1": 0.45, "Wolbachia per cell robust z, rep 2": 0.407, "Wolbachia per cell robust z, rep 3": -0.268, "Outcome": "inactive"}
{"gene": "Klp68D", "dsRNA": "DRSC29890", "Wolbachia per cell robust z, rep 1": 0.689, "Wolbachia per cell robust z, rep 2": 0.819, "Wolbachia per cell robust z, rep 3": 0.87, "Outcome": "inactive"}
{"gene": "barc", "dsRNA": "DRSC11792", "Wolbachia per cell robust z, rep 1": -2.39, "Wolbachia per cell robust z, rep 2": -0.886, "Wolbachia per cell robust z, rep 3": -0.447, "Outcome": "inactive"}
{"gene": "CG10395 + IFT20", "dsRNA": "DRSC27079", "Wolbachia per cell robust z, rep 1": 0.124, "Wolbachia per cell robust z, rep 2": -0.412, "Wolbachia per cell robust z, rep 3": 1.12, "Outcome": "inactive"}
{"gene": "Parp1", "dsRNA": "DRSC07725", "Wolbachia per cell robust z, rep 1": -0.133, "Wolbachia per cell robust z, rep 2": 0.513, "Wolbachia per cell robust z, rep 3": 1.7, "Outcome": "inactive"}
{"gene": "Parp1", "dsRNA": "DRSC07778", "Wolbachia per cell robust z, rep 1": -0.417, "Wolbachia per cell robust z, rep 2": -0.172, "Wolbachia per cell robust z, rep 3": -3.47, "Outcome": "inactive"}
{"gene": "Parp1", "dsRNA": "DRSC07780", "Wolbachia per cell robust z, rep 1": -0.477, "Wolbachia per cell robust z, rep 2": -1.38, "Wolbachia per cell robust z, rep 3": -0.353, "Outcome": "inactive"}
{"gene": "elfless", "dsRNA": "DRSC02451", "Wolbachia per cell robust z, rep 1": 0.912, "Wolbachia per cell robust z, rep 2": 1.18, "Wolbachia per cell robust z, rep 3": 1.6, "Outcome": "inactive"}
{"gene": "fz", "dsRNA": "DRSC11348", "Wolbachia per cell robust z, rep 1": 1.76, "Wolbachia per cell robust z, rep 2": 1.18, "Wolbachia per cell robust z, rep 3": -0.871, "Outcome": "inactive"}
{"gene": "fz", "dsRNA": "DRSC39155", "Wolbachia per cell robust z, rep 1": 1.21, "Wolbachia per cell robust z, rep 2": -0.052, "Wolbachia per cell robust z, rep 3": -3.75, "Outcome": "inactive"}
{"gene": "CG5114", "dsRNA": "DRSC10482", "Wolbachia per cell robust z, rep 1": 0.408, "Wolbachia per cell robust z, rep 2": -8.35, "Wolbachia per cell robust z, rep 3": 0.736, "Outcome": "inactive"}
{"gene": "Tsp66E", "dsRNA": "DRSC09683", "Wolbachia per cell robust z, rep 1": -3.44, "Wolbachia per cell robust z, rep 2": -1.3, "Wolbachia per cell robust z, rep 3": -4.15, "Outcome": "active"}

Copied from above (2 entries):
{"gene": "Klp68D", "dsRNA": "DRSC29890", "Wolbachia per cell robust z, rep 1": 0.689, "Wolbachia per cell robust z, rep 2": 0.819, "Wolbachia per cell robust z, rep 3": 0.87, "Outcome": "inactive"}
{"gene": "barc", "dsRNA": "DRSC11792", "Wolbachia per cell robust z, rep 1": -2.39, "Wolbachia per cell robust z, rep 2": -0.886, "Wolbachia per cell robust z, rep 3": -0.447, "Outcome": "inactive"}
